Compound potency records, mixed from different reports. Data source: NIAID ChemDB in PubChem.

All rows: whole-cell or culture tests; species: Candida albicans; measure: MFC

Blank or dashed fields: not listed here.

| smiles | strain | read by | value |
|---|---|---|---|
| Clc1ccc(CO/N=C2/c3ccccc3OCC2n2cncn2)cc1 | ATCC 10231 |  | >64 µg/mL |
| N=C(N)c1ccc(OCCCC(O)COc2ccc(C(=N)N)cc2)cc1 | 103.96 |  | 12.5 µg/mL |
| CCCCCCCCCCCCCCCCCCCCCC[C@H](O)CCCCCC |  | broth dilution | 500 µM |
| Fc1ccccc1CO/N=C1\c2ccccc2OCC1n1cncn1 | ATCC 10231 |  | >64 µg/mL |
| C[N+](C)(C)CCOP(=O)([O-])OCCCCCC1CCCCCCCCCCCCCC1 | Clinical isolate 44A | broth dilution | >16 µg/mL |
| Clc1ccc(CO/N=C2/c3ccc(Cl)cc3OCC2n2cnnc2)cc1 | ATCC 10231 |  | >64 µg/mL |
| C[C@@H]1[C@H](O)[C@@H](C)/C=C/C=C/C=C/C=C/C=C/C=C/C=C/[C@H](O[C@@H]2O[C@H](C)[C@@H](O)[C@H](N)[C@@H]2O)C[C@@H]2O[C@](O)(C[C@@H](O)C[C@@H](O)[C@H](O)CC[C@@H](O)C[C@@H](O)CC(=O)O[C@H]1C)C[C@H](O)[C@H]2C(=O)O | ATCC 10231 | broth dilution | 8 µg/mL |
| C[C@@H]1[C@H](O)[C@@H](C)/C=C/C=C/C=C/C=C/C=C/C=C/C=C/[C@H](O[C@@H]2O[C@H](C)[C@@H](O)[C@H](N)[C@@H]2O)C[C@@H]2O[C@](O)(C[C@@H](O)C[C@@H](O)[C@H](O)CC[C@@H](O)C[C@@H](O)CC(=O)O[C@H]1C)C[C@H](O)[C@H]2C(=O)O | ATCC 10231 | broth dilution | 0.193 µg/mL |
| C[C@@H]1O[C@@H](O[C@H]2[C@H](O[C@H]3CC[C@@]4(C)[C@@H](CC[C@]5(C)[C@@H]4CC=C4[C@@H]6CC(C)(C)CC[C@]6(C(=O)O)CC[C@]45C)[C@]3(C)CO)OC[C@H](O)[C@@H]2O)[C@H](O)[C@H](O)[C@H]1O | Y0109 |  | 25 µg/mL |
| c1ccc(CO/N=C2/c3ccccc3OCC2n2cncn2)cc1 | ATCC 10231 |  | >64 µg/mL |
| CCCCCCCCOc1ccc(C(=O)NC2C[C@@H](O)[C@@H](O)NC(=O)C3[C@@H](O)[C@@H](C)CN3C(=O)C(C(C)O)NC(=O)C([C@H](O)[C@@H](O)c3ccc(O)cc3)NC(=O)C3C[C@@H](O)CN3C(=O)C(C(C)O)NC2=O)cc1 | 126 strains |  | 0.31 µg/mL |
| CN[C@@H]1[C@H](O[C@@H]2OC[C@@H](O)[C@H](O)[C@H]2O)[C@@H](O)[C@H](O[C@H]2c3cc(C)c(C(=O)N[C@H](C)C(=O)O)c(O)c3-c3c(cc4c(c3O)C(=O)c3cc(OC)cc(O)c3C4=O)[C@@H]2O)O[C@@H]1C | A9540 |  | 10 µg/mL |
| Fc1cccc(CO/N=C2\c3ccccc3OCC2n2cncn2)c1 | ATCC 10231 |  | >64 µg/mL |
| COc1ccccc1CC(Cc1ccc(-c2ccccc2)cc1)n1ccnc1 |  |  | 19 µM |
| Brc1ccc(CO/N=C2/c3ccccc3OCC2n2cncn2)cc1 | ATCC 10231 |  | 64 µg/mL |
| Clc1ccc(CN(Cc2ccc(-c3ccccc3)cc2)n2ccnc2)c(Cl)c1 |  |  | 6.2 µM |
| COC1CC2CCC(C)C(O)(O2)C(=O)C(=O)N2CCCCC2C(=O)OC(C(C)CC2CCC(O)C(OC)C2)CC(=O)C(C)/C=C(\C)C(O)[C@@](OC)(N(O)C(=O)OCC(C)C)C(=O)C(C)CC(C)/C=C/C=C/C=C/1C | WILD TYPE |  | >100 µg/mL |
| NCCNC(=O)C1=Nc2ccc(NC(=O)C3=Nc4ccc(C(=O)Nc5ccc6[nH]c(C(=O)NCCN)cc6c5)cc4C3)cc2C1 |  |  | 4 µg/mL |
| CC1(C)CC[C@]2(C(=O)O)CC[C@]3(C)C(=CC[C@@H]4[C@@]5(C)CC[C@H](OC6O[C@H](CO)[C@@H](O)[C@H](O)[C@H]6OC6O[C@H](CO)[C@@H](O)[C@H](O)[C@H]6O)[C@@](C)(CO)[C@@H]5CC[C@]43C)[C@@H]2C1 | ATCC 90029 |  | >100 µg/mL |
| C[C@H]1[C@H](O)[C@@H](C)/C=C/C=C/C=C/C=C/C=C/C=C/C=C/[C@H](O[C@@H]2O[C@H](C)[C@@H](O)[C@H](N)[C@@H]2O)C[C@@H]2O[C@](O)(C[C@@H](O)C[C@@H](O)CC[C@H](O)[C@@H](O)C[C@@H](O)CC(=O)O[C@H]1C)C[C@H](O)[C@H]2C(=O)O | ATCC 10231 | broth dilution | 1 µg/mL |
| N=C(N)c1ccc2nc(CCCCc3nc4ccc(C(=N)N)cc4[nH]3)[nH]c2c1 | A39 |  | >100 µg/mL |
| Clc1ccc(CC(Cc2ccc(-c3ccccc3)cc2)n2ccnc2)c(Cl)c1 |  |  | 40 µM |
| CCCCCCCCCCCCCCCCOP(=O)([O-])OCC[N+](C)(C)C | ATCC 10231 | broth dilution | 2 µg/mL |
| N=C(N)c1ccc(OCCCCCCOc2ccc(C(=N)N)cc2)cc1 | A39 |  | 12.5 µg/mL |
| CC1(C)CC[C@]2(C(=O)O)CC[C@]3(C)C(=CC[C@@H]4[C@@]5(C)CC[C@H](OC6O[C@H](CO)[C@@H](O)[C@H](O)[C@H]6O)[C@@](C)(CO)[C@@H]5CC[C@]43C)[C@@H]2C1 | Clinical isolates |  | >100 µg/mL |
| N=C(N)c1ccc2nc(-c3ccc(-c4nc5ccc(C(=N)N)cc5[nH]4)[nH]3)[nH]c2c1 | ATCC 76615 |  | 0.78 µg/mL |
| Clc1ccc(CC(Cc2ccc(-c3ccccc3)cc2)n2ccnc2)cc1 |  |  | 33 µM |
| Clc1ccc(CO/N=C2/c3ccccc3OCC2n2cncn2)c(Cl)c1 | ATCC 10231 |  | >64 µg/mL |
| CCOc1ccc2nc3cc(N=C4NC(=O)/C(=C\c5ccc([N+](=O)[O-])o5)S4)ccc3c(N)c2c1 | ATCC 60193 | broth dilution | 250 µM |
| CCCCCOc1ccc(-c2ccc(-c3ccc(C(=O)N[C@H]4C[C@@H](O)[C@@H](O)NC(=O)[C@@H]5[C@@H](O)[C@@H](C)CN5C(=O)[C@H]([C@H](C)O)NC(=O)[C@H]([C@H](O)[C@@H](O)c5ccc(O)cc5)NC(=O)[C@@H]5C[C@@H](O)CN5C(=O)[C@H]([C@H](C)O)NC4=O)cc3)cc2)cc1 | 94-93 |  | 2 µg/mL |
| COC(/C=C/c1ccccc1)=C1/C(=O)C=C(C)C1=O | ATCC 90028 |  | 1.56 µg/mL |
| C[C@@H]1O[C@@H](O[C@H]2[C@H](O)[C@@H](O)C(OC3[C@H](O[C@H]4CC[C@@]5(C)[C@@H](CC[C@]6(C)[C@@H]5CC=C5[C@@H]7CC(C)(C)CC[C@]7(C(=O)O)CC[C@]56C)[C@]4(C)CO)OC[C@H](O)[C@@H]3O)O[C@@H]2CO)[C@H](O)[C@H](O)[C@H]1O | Clinical isolates |  | 25 µg/mL |
| C[C@H]1[C@H](O)[C@@H](C)/C=C/C=C/C=C/C=C/C=C/C=C/C=C/[C@H](O[C@@H]2O[C@H](C)[C@@H](O)[C@H](N)[C@@H]2O)C[C@@H]2O[C@](O)(C[C@@H](O)C[C@@H](O)CC[C@H](O)[C@@H](O)C[C@@H](O)CC(=O)O[C@H]1C)C[C@H](O)[C@H]2C(=O)O | ATCC 90028 | broth dilution | 0.5 µg/mL |
| N=C(N)c1ccc(OCCCCCOc2ccc(/C(N)=N\O)cc2)cc1 | A39 |  | >100 µg/mL |
| COC1CC2CCC(C)C(O)(O2)C(=O)C(=O)N2CCCCC2C(=O)OC(C(C)CC2CCC(O)C(OC)C2)CC(=O)C(C)/C=C(\C)[C@@](O)(c2ccc(C)s2)C(OC)C(=O)C(C)CC(C)/C=C/C=C/C=C/1C | RBP1/RBP1 |  | >100 µg/mL |

2 of the rows above, restated:

smiles	strain	read by	value
NCCNC(=O)C1=Nc2ccc(NC(=O)C3=Nc4ccc(C(=O)Nc5ccc6[nH]c(C(=O)NCCN)cc6c5)cc4C3)cc2C1			4 µg/mL
CN[C@@H]1[C@H](O[C@@H]2OC[C@@H](O)[C@H](O)[C@H]2O)[C@@H](O)[C@H](O[C@H]2c3cc(C)c(C(=O)N[C@H](C)C(=O)O)c(O)c3-c3c(cc4c(c3O)C(=O)c3cc(OC)cc(O)c3C4=O)[C@@H]2O)O[C@@H]1C	A9540		10 µg/mL

Conditions beyond the fields shown may differ between rows.